Source: patent publication EP1922329B1

What follows are substances tested against protective antigen (PA) of Bacillus anthracis (Bacillus anthracis) (UniProt P13423) (assay: cell-based or functional assay).

Substance | IC50, RAW macrophage protection assay 07/20/05 [ng/mL] | IC50, RAW macrophage protection assay 07/28/05 [ng/mL] | Molar ratio of antitoxin to PA at the IC50, assay 07/20/05 | Molar ratio of antitoxin to PA at the IC50, assay 07/28/05 | IC50, RAW macrophage protection assay 07/27/05 [ng/mL] | Molar ratio of antitoxin to PA at the IC50, assay 07/27/05
CMG2-IgG (original construct: CMG2 amino acids 34-232 fused to the constant region of human IgG1) (from UniProt P58335 34-232) (Fc fusion) | 242 | 224 | 2.16 | 2 |  | 
CMG2-IgG Variant 1 expressed together with CMG2-kappa (V1/K) (from UniProt P58335 34-218; P58335 34-232) (Fc fusion) |  |  |  |  | 44 | 0.25
CMG2-IgG Variant 3 expressed together with CMG2-kappa (V3/K) (from UniProt P58335 34-218; P58335 34-232) (Fc fusion) |  |  |  |  | 32 | 0.18
CMG2-IgG variant 1 (V1) (from UniProt P58335 34-218) (Fc fusion) |  | 197 |  | 1.8 |  | 
CMG2-IgG variant 2a (V2a) (from UniProt P58335 34-232; P01857 99-330) (Fc fusion) |  | 67 |  | 0.72 |  | 
CMG2-IgG variant 2b (V2b): VWA/I domain of CMG2 plus Cγ2/Cγ3 of IgG (from UniProt P58335 34-218) (Fc fusion) | 41 | 28 | 0.45 | 0.31 |  | 
CMG2-IgG variant 3 (V3) (from UniProt P58335 34-218) (Fc fusion) |  | 100 |  | 0.91 |  | 
